Tests used:
DNG (D2-hRuPac cells) = assay: DNG antiviral activity, D2-hRuPac cells, Renilla luciferase; format: cell-based, Dengue fever virus; conditions: therapeutic index CC50/EC50, DNG
EBOV minigenome = format: cell-based, Ebola virus; conditions: ratio CC50 / EC50
SINV (SR19-F-luc cells) = assay: SINV antiviral activity, SR19-F-luc cells, Firefly luciferase; format: cell-based, Sindbis virus; conditions: therapeutic index CC50/EC50, SINV

Structure (SMILES)	DNG TI (DNG (D2-hRuPac cells))	EBOV TI (EBOV minigenome)	SINV TI (SINV (SR19-F-luc cells))
Cc1ccc2nc(C)cc(NCc3ccco3)c2c1 [Compound 23]	2.25	0.77	0.77
CCc1ccccc1Nc1cc(C)nc2c(OC)cccc12 [Compound 24]	2.09	1.04	3.49
COc1cccc2c(Nc3cccc([N+](=O)[O-])c3)cc(C)nc12 [Compound 25]	5.9	0.31	10.77
Cc1ccc2nc3c(c(Nc4cccc(C(F)(F)F)c4)c2c1)CCC3 [Compound 26]	1.1	0.71	2.87
Cc1ccc2nc3c(c(Nc4ccccc4)c2c1)CCC3 [Compound 27]	1.32	0.8	26.97
CCOC(=O)c1cnc2ccc(OC)cc2c1NCc1ccco1 [Compound 29]	2.97	2.53	0.51
CCOC(=O)c1cnc2ccccc2c1NCc1ccco1 [Compound 30]	4.61	4.39	0.74
CCOC(=O)c1cnc2ccc(OCC)cc2c1Nc1ccc(I)cc1 [Compound 32]	1	1	1
CCOC(=O)c1cnc2ccc(OCC)cc2c1Nc1ccccc1CC [Compound 34]	0.83	0.83	0.83
CCOC(=O)c1cnc2c(C)cc(C)cc2c1NCc1ccco1 [Compound 35]	3.35	5.6	0.5
CCOC(=O)c1cnc2ccc(OCC)cc2c1NCc1ccco1 [Compound 36]	2.87	0.63	0.63
CCOC(=O)c1cnc2c(ccc3ccccc32)c1NCc1ccco1 [Compound 37]	1.63	0.55	0.55
CCOC(=O)c1cnc2ccc(C)cc2c1Nc1ccc(N2CCOCC2)cc1 [Compound 38]	1	1	1
CCOC(=O)c1cnc2ccc(C)cc2c1NCc1ccco1 [Compound 39]	3.8	3.73	0.36
Cc1cc(Nc2cccc(C(F)(F)F)c2)c2cc(Cl)ccc2n1 [Compound 40]	1.48	0.8	4.16
CCOc1ccc2nc(C)cc(Nc3ccc(Br)cc3)c2c1 [Compound 41]	3.64	0.38	9.72
CCOc1ccc2nc(C)cc(Nc3ccc(OCc4ccccc4Cl)cc3)c2c1 [Compound 42]	5.07	0.39	8.56
COc1ccc2nc(C)cc(Nc3ccc(OCc4ccccc4Cl)cc3)c2c1 [Compound 43]	15.79	0.35	6.38
Cc1cc(C)c2nc(C)cc(Nc3ccc(OCc4ccccc4)cc3)c2c1 [Compound 44]	8.08	0.37	7.67
CCOc1ccc2nc(C)cc(Nc3ccc(C)c(Cl)c3)c2c1 [Compound 45]	5.03	0.34	7.84
CCOC(=O)c1cnc2c(C)cccc2c1NCc1ccco1 [Compound 46]	4.81	6.2	0.99
Cc1cc(Nc2ccc(C)c(C)c2)c2cc(Cl)ccc2n1 [Compound 47]	1.42	0.75	7.75
CC(=O)c1cccc(Nc2cc(C)nc3c(C)cc(C)cc23)c1 [Compound 48]	2.44	0.97	10.36
Cc1cc(C)c2nc(C)cc(Nc3ccc(O)cc3)c2c1 [Compound 49]	2.97	5.71	0.52

Structure (SMILES)	DNG TI (DNG (D2-hRuPac cells))	EBOV TI (EBOV minigenome)	SINV TI (SINV (SR19-F-luc cells))
CCOC(=O)c1ccc2nc(C)cc(Nc3ccc(C)cc3C)c2c1 [Compound 51]	0.92	1.07	4.09
CCOC(=O)c1cnc2c(Cl)cc(Cl)cc2c1NCc1ccco1 [Compound 52]	2.79	3.34	1.78
Cc1cc(C)c2nc(C)cc(Nc3ccc(Cl)c(Cl)c3)c2c1 [Compound 53]	1.71	0.66	7.35
Cc1cc(C)c2nc(C)cc(NCc3ccco3)c2c1 [Compound 54]	2.29	0.67	1.31
CCOC(=O)c1cnc2c(Cl)cccc2c1NCc1ccco1 [Compound 55]	5.66	4.64	0.64
CCOc1ccc2nc(C)cc(Nc3ccc(OC)c(OC)c3)c2c1 [Compound 56]	3.28	0.59	11.95
CCOc1ccc2nc(C)cc(Nc3ccc(N(C)C)cc3)c2c1 [Compound 57]	4.94	0.41	7.81
CCOc1ccc2nc(C)cc(Nc3cc(Cl)ccc3OC)c2c1 [Compound 58]	2.7	3.78	4.44
COC(=O)c1ccc(Nc2cc(C)nc3ccc(Cl)cc23)cc1 [Compound 60]	4.93	1	6.25
COC(=O)c1ccc(Nc2cc(C)nc3c(C)cccc23)cc1 [Compound 61]	3.27	0.65	2.65
CCCOC(=O)c1ccc(Nc2cc(C)nc3ccc(C(=O)OCC)cc23)cc1 [Compound 63]	1.57	7.77	0.93
CCOC(=O)c1ccc2ncc(C(=O)OCC)c(NCCCOC(=O)C(Cl)(Cl)Cl)c2c1 [Compound 64]	14.44	3.9	1.77
Cc1cc(Nc2cccc(Cl)c2C)c2cccc(C)c2n1 [Compound 65]	1	1.54	1
CCOC(=O)c1cnc2ccc(F)cc2c1NCCCN(C)C [Compound 66]	1.26	4.58	6.78
CCOC(=O)c1cnc2c(OC)cccc2c1NCC(C)O (stereo not drawn) [Compound 69]	0.79	0.6	0.93
CCOC(=O)c1cnc2c(OC)cccc2c1NC(C)c1ccccc1 (stereo not drawn) [Compound 71]	1.33	1.67	8.93
CCOC(=O)c1cnc2c(C(F)(F)F)cccc2c1Nc1ccc(S(=O)(=O)Nc2nc(C)cc(C)n2)cc1 [Compound 72]	6.24	4.34	2.02
COC(=O)c1ccc2nc(C)cc(Nc3cccc(O)c3)c2c1 [Compound 73]	4.31	0.96	12.08
CCOC(=O)c1cnc2ccc(F)cc2c1Nc1ccc(S(=O)(=O)Nc2nc(C)cc(C)n2)cc1 [Compound 74]	18.38	1	1
CCOC(=O)c1cnc2c(C)cc(C)cc2c1NCCCN(C)C [Compound 75]	3.84	3.27	2.13
COc1ccc2nc(C)cc(Nc3ccc(I)cc3)c2c1 [Compound 76]	2.63	1.79	13.92
Cc1cc(NNC(=O)OCc2ccccc2)c2ccccc2n1 [Compound 78]	0.9	0.68	6.78
COc1ccccc1Nc1cc(C)nc2c(C)c(C)cc(N)c12 [Compound 79]	6.21	1.18	5.98

From patent US20090221624A1, “4-AMINOQUINOLINE COMPOUNDS FOR TREATING VIRUS-RELATED CONDITIONS” (priority 2005, published 2009)
